Target: recombinant RBD of the SARS-CoV-2 S protein (Example 1) (SARS-CoV-2), P0DTC2
Experiment: SPR, RBD immobilized on CM5
Details: remark: other sources report otherwise

B1: Nb20 (VHH)
chain: QVQLVESGGGLVQAGGSLRLSCAVSGAGAHRVGWFRRAPGKEREFVAAIGASGGMTNYLDSVKGRFTISRDNAKNTIYLQMNSLKPQDTAVYYCAARDIETAEYIYWGQGTQVTVSS
Work on B1 yielded a Kd of 0.0104 nM.

Source: patent US20250002563A1
